This data set concerns the molecule itself. Briefly: solution NMR (1H-15N HSQC, NOESY, ROESY).

A word on the stoichiometry N: it is a count of units in the complex or per binding partner. On to EAGPQGLPGPKGDRGEAGP [Lcl-CLR peptide (Ac-EAGPQGLPGPKGDRGEAGP-NH2)], for which the “stoichiometry N” value was 3.
